Results of unrelated studies side by side (data: NIAID ChemDB).

All rows: growth or infection tests; organism: HIV-1; method: cytopathic effect / trypan blue; endpoint: EC50

ECn: concentration that inhibits the pathogen or its effect by n%. An empty or dashed field is not shown. Neighbouring rows are from separate reports.

compound	strain or isolate	cells	value
Nc1nc(N)c2ncn(CC(CO)OCP(=O)(O)O)c2n1	IIIB	MT-4	>40 µM
NC(=O)c1ncn([C@@H]2O[C@H](CO)[C@@H](O)[C@H]2O)n1	IIIB	MT-4	>20 µg/mL
Nc1nc2c(ncn2[C@H]2CC[C@@H](CO)O2)c(=O)[nH]1	IIIB	MT-4	6.9 µM
Cc1cn([C@H]2C=C[C@@H](CO)O2)c(=O)[nH]c1=O	IIIB Laboratory strain	MT-4	0.01 µM
Nc1nc2c(ncn2CC(O)CCO)c(=O)[nH]1	IIIB	ATH8	>100 µM
Nc1nc(Br)c2ncn([C@H]3CC[C@@H](CO)O3)c2n1	IIIB	ATH8	<20 µM
Nc1ccn(C/C=C/CCl)c(=O)n1	IIIB	ATH8	>100 µM
Nc1ncnc2c1ncn2[C@@H]1C[C@H](CO)[C@H]1CO	IIIB	ATH8	1 µM
O=c1ccn([C@H]2CC[C@@H](CO)O2)c(=O)[nH]1	IIIB	MT-4	129 µM
Nc1ncnc2c1ncn2C=C=CCCl	IIIB	ATH8	>100 µM
Cc1cn(C[C@@H](CO)OCP(=O)(O)O)c(=O)[nH]c1=O	IIIB	MT-4	>250 µM
Nc1ncnc2c1ncn2[C@H]1CC[C@@H](CO)O1	IIIB	ATH8	<10 µM
Nc1nc(=S)c2ncn([C@H]3CC[C@@H](CO)O3)c2[nH]1	IIIB	ATH8	>2 µM
Nc1ncnc2c1ncn2[C@H]1C=C[C@@H](CO)O1	IIIB Laboratory strain	MT-4	>125 µM
O=c1ccn([C@H]2CC[C@@H](CO)O2)c(=O)[nH]1	IIIB	MT-4	<625 µM
Nc1nc(N)c2ncn(CCOCP(=O)(O)O)c2n1	IIIB	MT-4	1.4 µM
Nc1ncnc2c1ncn2CC#CCO	IIIB	ATH8	>100 µM
O=c1ccn([C@H]2C=C[C@@H](CO)O2)c(=O)[nH]1	IIIB Laboratory strain	MT-4	>125 µM
Cc1cn([C@H]2C[C@H](N=[N+]=[N-])[C@@H](CO)O2)c(=O)[nH]c1=O	AMR50	MT-4	0.14 µM
Cc1cn(CC(=O)CCO)c(=O)[nH]c1=O	IIIB	ATH8	>100 µM
Cc1cn([C@H]2C[C@H](N=[N+]=[N-])[C@@H](CO)O2)c(=O)[nH]c1=O	IIIB	ATH8	<1 µM
O=c1ccn(CCOCP(=O)(O)O)c(=O)[nH]1	IIIB	MT-4	>125 µM
Nc1ncnc2c1ncn2[C@H]1CC[C@@H](CO)O1	IIIB Laboratory strain	MT-4	2.5 µM
O=S(=O)(O)OCC1OC2OC3C(COS(=O)(=O)O)OC(OC4C(COS(=O)(=O)O)OC(OC5C(COS(=O)(=O)O)OC(OC6C(COS(=O)(=O)O)OC(OC7C(COS(=O)(=O)O)OC(OC8C(COS(=O)(=O)O)OC(OC1C(OS(=O)(=O)O)C2OS(=O)(=O)O)C(OS(=O)(=O)O)C8OS(=O)(=O)O)C(OS(=O)(=O)O)C7OS(=O)(=O)O)C(OS(=O)(=O)O)C6OS(=O)(=O)O)C(OS(=O)(=O)O)C5OS(=O)(=O)O)C(OS(=O)(=O)O)C4OS(=O)(=O)O)C(OS(=O)(=O)O)C3OS(=O)(=O)O	IIIB	MT-4	10.5 µg/mL
Nc1ccn([C@H]2CC[C@@H](CO)O2)c(=O)n1	IIIB	ATH8	<0.2 µM
Nc1ncc2ncn(CCOCP(=O)(O)O)c2n1	IIIB	MT-4	45 µM
CSc1ccc(OP(=O)(OC[C@@H]2C=C[C@H](n3cc(C)c(=O)[nH]c3=O)O2)OC[C@@H]2C=C[C@H](n3cc(C)c(=O)[nH]c3=O)O2)cc1	IIIB	MT-4	15 µM
Nc1ncnc2c1ncn2C/C=C\CO	IIIB	ATH8	>500 µM
N#Cc1cn([C@H]2C=C[C@@H](CO)O2)c2ncnc(N)c12	IIIB	MT-4	14 µM
O=c1[nH]cnc2c1ncn2[C@H]1CC[C@@H](CO)O1	IIIB	MT-4	4.9 µM
Nc1ccn([C@H]2CC[C@@H](CO)O2)c(=O)n1	IIIB	MT-4	0.7 µg/mL
Nc1nc2c(ncn2CC(CO)OCP(=O)(O)O)c(=O)[nH]1	IIIB	MT-4	>100 µM
Nc1ncnc2c1ccn2[C@H]1CC[C@@H](CO)O1	IIIB	MT-4	>25 µM
Nc1ccn([C@H]2CC[C@@H](CO)O2)c(=O)n1	IIIB	ATH8	<0.2 µM
Cc1cc(-c2ccc(N=Nc3ccc4c(S(=O)(=O)O)cc(S(=O)(=O)O)c(N)c4c3O)c(C)c2)ccc1N=Nc1ccc2c(S(=O)(=O)O)cc(S(=O)(=O)O)c(N)c2c1O	-	MT-4	1.5 µM
Nc1nc(Cl)nc2c1ncn2[C@H]1CC[C@@H](CO)O1	IIIB	ATH8	>2 µM
Cc1cn([C@H]2C[C@H](N=[N+]=[N-])[C@@H](CO)O2)c(=O)[nH]c1=O	IIIB	MT-4	0.003 µM
CCOC(=O)[C@H](C)NP(=O)(OC[C@@H]1C=C[C@H](n2cc(C)c(=O)[nH]c2=O)O1)Oc1ccccc1	IIIB	CEM + CEM TK-	0.1 µM
Nc1nc2c(ncn2CCOCP(=O)(O)O)c(=O)[nH]1	IIIB	MT-4	3.8 µM
Nc1nc(N)c2ncn([C@H]3CC[C@@H](CO)O3)c2n1	IIIB	MT-4	3.8 µM
Nc1ncnc2c1ncn2CCOCP(=O)(O)O	IIIB	MT-4	5.9 µM
O=c1[nH]cnc2c1ncn2CCOCP(=O)(O)O	IIIB	MT-4	>125 µM

A second listing of 5 rows from above:

compound | strain or isolate | cells | value
Nc1nc(Cl)nc2c1ncn2[C@H]1CC[C@@H](CO)O1 | IIIB | ATH8 | >2 µM
Nc1nc(=S)c2ncn([C@H]3CC[C@@H](CO)O3)c2[nH]1 | IIIB | ATH8 | >2 µM
Nc1ncnc2c1ncn2[C@H]1CC[C@@H](CO)O1 | IIIB Laboratory strain | MT-4 | 2.5 µM
O=c1ccn([C@H]2CC[C@@H](CO)O2)c(=O)[nH]1 | IIIB | MT-4 | <625 µM
CSc1ccc(OP(=O)(OC[C@@H]2C=C[C@H](n3cc(C)c(=O)[nH]c3=O)O2)OC[C@@H]2C=C[C@H](n3cc(C)c(=O)[nH]c3=O)O2)cc1 | IIIB | MT-4 | 15 µM